According to publication PMC7150849 (Viruses, 2020):

Tests used:
Format in all cases: cell-based
[1] = system: HIV-1 ZM109F.PB4WT pseudovirus; settings: ZM109F.PB4WT (subtype C, CCR5-tropic) pseudovirus, 100 TCID50, TZM-bl cells 48 h, luciferase; mean ± SD, three independent experiments
[2] = system: HIV-1 QH0692WT pseudovirus; settings: QH0692WT (subtype B, CCR5-tropic) pseudovirus, 100 TCID50, TZM-bl cells 48 h, luciferase; mean ± SD, three independent experiments
[3] = system: HIV-1 ZM53M.PB12WT pseudovirus; settings: ZM53M.PB12WT (subtype C, CCR5-tropic) pseudovirus, 100 TCID50, TZM-bl cells 48 h, luciferase; mean ± SD, three independent experiments
[4] = system: HIV-1 AC10.29WT pseudovirus; settings: AC10.29WT (subtype B, CCR5-tropic) pseudovirus, 100 TCID50, TZM-bl cells 48 h, luciferase; mean ± SD, three independent experiments
HIV-1 JRFLWT pseudovirus = settings: JRFLWT (subtype B, CCR5-tropic) pseudovirus, 100 TCID50, TZM-bl cells 48 h, luciferase; mean ± SD, three independent experiments
[5] = system: HIV-1 NL4-3WT pseudovirus; settings: NL4-3WT (subtype B, CXCR4-tropic) pseudovirus, 100 TCID50, peptide + virus 1 h room temperature, TZM-bl cells 48 h 37 °C, luciferase; mean ± SD, three independent experiments
[6] = system: HIV-1 REJO4541WT pseudovirus; settings: REJO4541WT (subtype B, CCR5-tropic) pseudovirus, 100 TCID50, TZM-bl cells 48 h, luciferase; mean ± SD, three independent experiments
[7] = system: HIV-1 92RW020WT pseudovirus; settings: 92RW020WT (subtype A, CCR5-tropic) pseudovirus, 100 TCID50, TZM-bl cells 48 h, luciferase; mean ± SD, three independent experiments

## CC[C@H](C)[C@H](NC(=O)[C@H](CCC(=O)O)NC(=O)[C@H](CCC(=O)O)NC(=O)[C@@H](NC(=O)[C@H](CCCCN)NC(=O)[C@H](CCCCN)NC(=O)[C@@H](NC(=O)[C@H](Cc1ccc(O)cc1)NC(=O)[C@H](CCC(=O)O)NC(=O)[C@H](CCC(=O)O)NC(=O)[C@@H](NC(=O)[C@H](CCCCN)NC(=O)[C@H](CCCCN)NC(=O)[C@H](CCC(=O)O)NC(=O)[C@H](Cc1c[nH]c2ccccc12)NC(=O)[C@H](CCC(=O)O)NC(=O)[C@H](CCC(=O)O)NC(=O)[C@H](Cc1c[nH]c2ccccc12)NC(=O)[C@@H](NC(=O)[C@H](CCSC)NC(=O)[C@H](CCC(=O)O)NC(C)=O)[C@@H](C)O)[C@@H](C)CC)[C@@H](C)O)[C@@H](C)CC)C(=O)N[C@@H](CC(C)C)C(=O)N[C@@H](CCCCN)C(N)=O [HP23]
[1]
  IC50: 0.8 ± 0.1 nM
[2]
  IC50: 34.6 ± 4.9 nM
[3]
  IC50: 1.2 ± 0.1 nM
[4]
  IC50: 0.7 ± 0.3 nM
HIV-1 JRFLWT pseudovirus
  IC50: 5.9 ± 2 nM
[5]
  IC50: 0.6 ± 0.2 nM
[6]
  IC50: 3.1 ± 0.5 nM
[7]
  IC50: 2.1 ± 1 nM

## CC[C@H](C)[C@H](NC(=O)[C@H](CC(C)C)NC(=O)[C@H](CCC(=O)O)NC(=O)[C@H](CCC(=O)O)NC(=O)[C@@H](NC(=O)[C@H](CCCCN)NC(=O)[C@H](CCCCN)NC(=O)[C@@H](NC(=O)[C@H](Cc1ccc(O)cc1)NC(=O)[C@H](CCC(=O)O)NC(=O)[C@H](CCC(=O)O)NC(=O)[C@@H](NC(=O)[C@H](CCCCN)NC(=O)[C@H](CCCCN)NC(=O)[C@H](CC(=O)O)NC(=O)[C@H](Cc1c[nH]c2ccccc12)NC(=O)[C@H](CCC(=O)O)NC(=O)[C@H](CCC(=O)O)NC(=O)[C@H](Cc1c[nH]c2ccccc12)NC(=O)[C@@H](NC(=O)[C@H](CCSC)NC(C)=O)[C@@H](C)O)[C@@H](C)CC)[C@@H](C)O)[C@@H](C)CC)C(=O)N[C@@H](CCCCN)C(=O)N[C@@H](CCCCN)C(=O)N[C@@H](CO)C(N)=O [MTSC22EK]
[1]
  IC50: 2 ± 0.4 nM
[2]
  IC50: 68.9 ± 7.5 nM
[3]
  IC50: 2.7 ± 0.2 nM
[4]
  IC50: 3.1 ± 0.7 nM
HIV-1 JRFLWT pseudovirus
  IC50: 19.5 ± 6.6 nM
[5]
  IC50: 2 ± 0.8 nM
[6]
  IC50: 9.6 ± 2.5 nM
[7]
  IC50: 6.7 ± 2.8 nM

## CC[C@H](C)[C@H](NC(=O)[C@H](CC(C)C)NC(=O)[C@H](CCC(=O)O)NC(=O)[C@H](CCC(=O)O)NC(=O)[C@@H](NC(=O)[C@H](CCCCN)NC(=O)[C@H](CCCCN)NC(=O)[C@@H](NC(=O)[C@H](Cc1ccc(O)cc1)NC(=O)[C@H](CCC(=O)O)NC(=O)[C@H](CCC(=O)O)NC(=O)[C@@H](NC(=O)[C@H](CCCCN)NC(=O)[C@H](CCCCN)NC(=O)[C@H](CC(=O)O)NC(=O)[C@H](Cc1c[nH]c2ccccc12)NC(=O)[C@H](CCC(=O)O)NC(=O)[C@H](CCC(=O)O)NC(=O)[C@H](Cc1c[nH]c2ccccc12)NC(C)=O)[C@@H](C)CC)[C@@H](C)O)[C@@H](C)CC)C(=O)N[C@@H](CCCCN)C(=O)N[C@@H](CCCCN)C(=O)N[C@@H](CO)C(N)=O [SC22EK]
[1]
  IC50: 43.6 ± 8.1 nM
[2]
  IC50: 2060 ± 292 nM
[3]
  IC50: 47.3 ± 3.4 nM
[4]
  IC50: 111 ± 37.1 nM
HIV-1 JRFLWT pseudovirus
  IC50: 467 ± 105 nM
[5]
  IC50: 47.9 ± 12.9 nM
[6]
  IC50: 382 ± 95.5 nM
[7]
  IC50: 428 ± 56.9 nM

## CC[C@H](C)[C@H](NC(=O)[C@H](CCC(=O)O)NC(=O)[C@H](CCCNC(=N)N)NC(=O)[C@H](CCC(=O)O)NC(=O)[C@H](Cc1c[nH]c2ccccc12)NC(=O)[C@@H](NC(=O)[C@H](CCC(=O)O)NC(=O)[C@H](Cc1c[nH]c2ccccc12)NC(=O)[C@H](CO)NC(C)=O)[C@@H](C)O)C(=O)N[C@@H](CCC(=O)O)C(=O)N[C@@H](CC(N)=O)C(=O)N[C@@H](Cc1ccc(O)cc1)C(=O)N[C@H](C(=O)N[C@@H](CCCNC(=N)N)C(=O)N[C@@H](CCC(N)=O)C(=O)N[C@H](C(=O)N[C@@H](Cc1ccc(O)cc1)C(=O)N[C@@H](CCCNC(=N)N)C(=O)N[C@H](C(=O)N[C@@H](CC(C)C)C(=O)N[C@@H](CCC(=O)O)C(=O)N[C@@H](CCC(=O)O)C(=O)N[C@@H](CO)C(=O)N[C@@H](CCC(N)=O)C(=O)N[C@@H](CCC(=O)O)C(=O)N[C@@H](CCC(N)=O)C(=O)N[C@@H](CCC(N)=O)C(=O)N[C@@H](CC(=O)O)C(=O)N[C@@H](CCCNC(=N)N)C(=O)N[C@@H](CC(N)=O)C(=O)N[C@@H](CCC(=O)O)C(=O)N[C@@H](CCCNC(=N)N)C(=O)N[C@@H](CC(=O)O)C(=O)N[C@@H](CC(C)C)C(=O)N[C@@H](CC(C)C)C(=O)N[C@@H](CCC(=O)O)C(N)=O)[C@@H](C)CC)[C@@H](C)CC)[C@@H](C)O [SFT, sifuvirtide]
[1]
  IC50: 2.6 ± 1.1 nM
[2]
  IC50: 28.6 ± 1.5 nM
[3]
  IC50: 2.1 ± 0.8 nM
[4]
  IC50: 2.1 ± 1 nM
HIV-1 JRFLWT pseudovirus
  IC50: 9 ± 2.1 nM
[5]
  IC50: 1.9 ± 0.8 nM
[6]
  IC50: 6.1 ± 0.2 nM
[7]
  IC50: 7.5 ± 3.1 nM
